Reference: article PMC8811161

How the values were obtained:
Assay in all cases: EMSA
Conditions in all cases: EMSA: 1 nM probe, 25 mM Tris-HCl pH 8.0, 50 mM KCl, 5 mM MgCl2, 0.5 mM EDTA, 10% glycerol, room temperature 30 min; 5% native PAGE at 4 C; recombinant protein; residues 1-224; protein details: 6xHis (pET28a); label: 6-FAM at 5' end of both primers; probe letters rebuilt from the primers and the genome
[1] = molecular target: PhoP R66A (Salmonella enterica serovar Typhimurium SL1344) (UniProt E1WFA1)
[2] = molecular target: PhoP R118A (Salmonella enterica serovar Typhimurium SL1344) (UniProt E1WFA1)
[3] = molecular target: PhoP wild type (Salmonella enterica serovar Typhimurium SL1344) (UniProt E1WFA1)
[4] = molecular target: PhoP R65A (Salmonella enterica serovar Typhimurium SL1344) (UniProt E1WFA1)

Measured: binding result

ATCCTCTACAACCAGTACGCGCATCATCTCTTCTCCCTTGTGTTAACAATAAGAACAGTCTAGCGTTGATTATGGTGCTTTGGGGATAAACAGTTAATAAACCAGACAAATAGTCACCCTCTTTCTGAAGAAAAGAGGGTGAGGCAGGCATTATTTAAGTTCGTCGACCAGAGTCACAGCGCGA (double strand) [phoP promoter]
binds: all assays above

For at least one entry, the source does not settle the construct or the ends of the probe.
